Experiment: Oxidization ability against sodium thiosulfate
Settings: basic solution (pH 9.3)

Structure (SMILES): OO [HP, hydrogen peroxide]
- STS oxidized by this oxidant (stoichiometry): less than 10%

Reference: patent publication US10226048B2 (priority 2014, dated 2019)
